The values below come from paper PMC8003391, “QSAR-Based Virtual Screening of Natural Products Database for Identification of Potent Antimalarial Hits” (Biomolecules, 2021).

SMILES strings stand for the structures. Values joined by “and” are separate entries in the source; they are usually repeats but may differ in a detail not shown here. Equal values may be shown once. A value given as a limit tells only on which side of the number the result lay.

The series deals with HepG2 cells. As to the kind of experiment: Cytotoxicity, MTT reduction assay. Type of series: cell-based, human. As to conditions: CC50 (HepG2)/EC50 (3D7). Here is the method:
Cytotoxicity of selected compounds was evaluated using the MTT reduction assay (3-[4,5-dimethyl-thiazol-2-yl]-2,5-diphenyltetrazolium chloride). Human hepatoma (HepG2) cells were cultured in Dulbecco’s Modified Eagle Medium supplemented with gentamycin (40 mg/L) and 10% heat-inactivated fetal bovine serum at 37 °C and 5% CO2. Cells were seeded in 96-well plates (NEST Biotechnology Co., Ltd., Wuxi, Jiangsu, China) at 10^5 cells per well and incubated in the presence of a serial dilution of the drugs starting at 100 µM. After 72 h of incubation, MTT was added to the wells. The optical density was measured at 570 nm (CLARIOStar, Labtech BMG Inc, Durham, NC, USA) and cell viability was expressed as a percentage relative to the untreated control. CC50 values were calculated by plotting a log dose vs. viability curve in GraphPad Prism 6 (GraphPad, La Jolla, CA, USA). The selectivity index (SI) of the compounds was determined by the expression:SI = (HepG2 CC50)/(Pf EC50), where HepG2 CC50 corresponds to the cytotoxic concentration of compounds in HepG2 cells and Pf EC50 relates to the 50% inhibitory concentration on P. falciparum 3D7 strain.
(Tetrazolium assays rely on reduction of a dye to a coloured formazan, in cell work by metabolically active cells.)
As to `CCOC(=O)c1ccc2[nH]cc(C(=O)OCC)c(=O)c2c1` [LDT-588], the “In vitro Therapeutic Index (SI)” value is > 10 and 17.46.
For the molecule `COc1ccc(C2c3[nH]c4ccccc4c3C[C@H]3C(=O)N(C4CC4)CC(=O)N23)cc1OC` (some centres unmarked) [LDT-599], the “In vitro Therapeutic Index (SI)” value stood at 5.70.
Under `COc1ccc(C2CC(=O)NC3=C2C(=O)C2(Oc4c(Cl)c(OC)cc(OC)c4C2=O)C(C)C3)cc1O` (centres unmarked) [LDT-614] stands 4.48; under `Cn1c(=O)[nH]c2nnc(-c3ccc(Cl)cc3)nc2c1=O` [LDT-592], 1.87.
For `COc1cc(C2NCCc3cc(OC)c(OC)cc32)ccc1O` (centres unmarked) [LDT-601] the value was 3.30.
